Anti-infective test results gathered from many reports (values: NIAID ChemDB through PubChem).

All rows: whole-cell or culture tests; organism: HIV-1

Conditions beyond the fields shown may differ between rows. An empty or dashed field is not shown. ECn is the concentration giving n% inhibition of infection, replication or growth.

structure,changes,measure,strain or isolate,cells,method,result
CC(=O)Nc1cnc(Oc2c(C)cc(C=O)cc2C)nc1Nc1ccc(C#N)cc1,,EC50,IIIB,MT-4,MTT,29 µM
CS(=O)(=O)N1CCC(NC(=O)c2cc(O)c(O)c(O)c2)CC1,,EC50,IIIB,MT-4,MTT,>42.4 µM
O=c1[nH]cnc2c1ncn2[C@H]1CC[C@@H](CO)O1,,EC50,NL4-3 Recombinant,MT-2,cytopathic effect / XTT,8 µM
Cc1c(O)cccc1C(=O)N[C@@H](CSc1ccccc1)[C@H](O)CN1C[C@H]2CCCC[C@H]2C[C@H]1C(=O)NC(C)(C)C,,EC50,RF,CEM + CEM-SS,cytopathic effect / MTT,0.0301 µM
Cc1cccc2nc3n(c12)C(c1c(F)cccc1Cl)SC3,,EC50,IIIB,MT-4,cytopathic effect / MTT,>25.7 µM
CC(C)(C)OC(=O)N1CCC(NC(=O)c2cc(O)c(O)c(O)c2)CC1,,EC50,IIIB,MT-4,MTT,>42.9 µM
Nc1ccn(C[C@@H](CO)OCP(=O)(O)O)c(=O)n1,,EC50,H112,CD4+HELA + HeLa,p24,3 µM
CC(C)(C)NC(=O)[C@@H]1C[C@@H]2CCCC[C@@H]2CN1C[C@@H](O)[C@H](Cc1ccccc1)NC(=O)[C@H](CC(N)=O)NC(=O)c1ccc2ccccc2n1,PR-L10V G48M F53L I54V,EC50,ESP2-4 (PR L10V G48M F53L I54V),PBMC,p24,1.264 µM
Cc1cn([C@H]2C[C@H](N=[N+]=[N-])[C@@H](COP(=O)(O)OCCCCCCCCN3CCN(C)CC3)O2)c(=O)[nH]c1=O,,EC50,LAI,CEM + CEM-4,cytopathic effect / MTT,0.23 µM
CC(=O)Nc1cnc(Oc2c(Cl)cc(Cl)cc2Cl)nc1Nc1ccc(C#N)cc1,,EC50,IIIB,MT-4,MTT,1.92 µM
c1ccc(C2OCc3nc4ccccc4n32)cc1,RT-Y181C,EC50,Pyridinone-resistant (RT Y181C),CEM,cytopathic effect / MTT,≥16.9 µM
Cc1cc(S(N)(=O)=O)ccc1NC(=O)COc1ccc(Cl)cc1C(=O)c1cc(C#N)cc(N(C)C)c1,V106A,EC50,,HeLa,,0.042 µM
COc1ccc(S(=O)(=O)N(CC(C)C)C[C@@H](O)[C@H](Cc2ccccc2)NC(=O)O[C@H]2CO[C@H]3OCC(F)(F)[C@H]32)cc1,A28S L33F V82I GRL04810-resistant,EC50,NL4-3,MT-4,,0.033 µM
Nc1nc(NC2CC2)c2ncn([C@H]3C=C[C@@H](CO)C3)c2n1,RT-L74V K103N,EC50,Site-directed mutant,MT-2,cytopathic effect / XTT,7.75 µM
CC(C)(C)OC(=O)N[C@@H](Cc1ccccc1)[C@H](O)CNC[C@@H](O)[C@H](Cc1ccc(OCC(=O)N2CCOCC2)cc1)NC(=O)OC(C)(C)C,,EC50,RF,MT-2,p24,0.04 µM
CC(=O)SCCOP(=O)(OCCSC(C)=O)OC[C@H]1O[C@@H](n2cc(C)c(=O)[nH]c2=O)C[C@@H]1N=[N+]=[N-],,EC50,LAI,CEM + CEM-SS,RT activity,0.022 µM
CC(C)CN(C[C@@H](O)[C@H](Cc1ccccc1)NC(=O)O[C@H]1CCOC1)S(=O)(=O)c1ccc(N)cc1,,EC50,PR-L63P ERS104pre,PBMC,p24,0.02 µM
COC(=O)c1ccc(C(=O)N2CCC(NC(=O)c3cc(O)c(O)c(O)c3)CC2)cc1,,EC50,IIIB,MT-4,MTT,>26.9 µM
CC(C)CN(C[C@@H](O)[C@H](Cc1ccccc1)NC(=O)O[C@H]1CCOC1)S(=O)(=O)c1ccc(N)cc1,,EC50,LAI,MT-2,MTT,0.03 µM
S=C(NCCc1cccs1)Nc1ccc(Br)cn1,,EC50,H112-2 Clinical isolate,HT4 + HeLa,plaque count,0.0006 µM
Nc1nc2c(ncn2[C@H]2CO[C@@H](CO)O2)c(=O)[nH]1,RT-K103N,EC50,Site-directed mutant,MT-2,cytopathic effect / XTT,1.98 µM
CC(C)(C)c1ccc(S(=O)(=O)N2CCC(NC(=O)c3cc(O)c(O)c(O)c3)CC2)cc1,,EC50,IIIB,MT-4,MTT,>131 µM
[N-]=[N+]=N[C@H]1C[C@H](n2ccc(N)nc2=O)O[C@@H]1CO,,EC50,LAI WT,MT-2,p24,15.6 µM
Cc1cc(C#Cc2ccc(N)cc2)cc(C)c1Oc1ccnc(Nc2ccc(C#N)cc2)n1,F227L + V106A,EC50,IIIB,MT-4,MTT,0.778 µM
Cc1nc(C)c([C@H](OC(C)(C)C)C(=O)O)c(N2CCC(C3CCCCC3)CC2)c1-c1ccc(OCCc2ccc(F)cc2)cc1,,EC50,NL4-3,MT-2,luciferase,<0.1 µM
Cc1ccnc2c1NC(=O)c1cccnc1N2C1CC1,RT-V106A,EC50,Recombinant,MT-4,cytopathic effect / MTT,5.012 µM
COc1ccc(CN[C@@H](C(=O)N[C@H]2c3ccccc3C[C@H]2O)[C@H](O)[C@H](Cc2ccccc2)NC(=O)[C@@H](NC(=O)OCc2ccccc2)C(C)(C)C)cc1,,EC50,IIIB,HuT-78 + HUT 78,p24,0.12 µM
Fc1cccc(F)c1C1SCc2nc3ccccc3n21,RT-V106A,EC50,Nevirapine-resistant (RT V106A),CEM,cytopathic effect / MTT,7.63 µM
Cc1cn([C@H]2C[C@H](N=[N+]=[N-])[C@@H](CO)O2)c(=O)[nH]c1=O,,EC50,IIIB,MT-2,cytopathic effect / XTT,0.9 µM
FC(F)(F)c1ccc2nc3n(c2c1)C(c1c(Cl)cccc1Cl)SC3,,EC50,IIIB,MT-4,cytopathic effect / MTT,>19.3 µM
Nc1nc(N)c2ncn(C[C@@H](CO)OCP(=O)(O)O)c2n1,,EC90,LAV,C3,RT activity,36 µM
Cc1cn([C@H]2C[C@H](N=[N+]=[N-])[C@@H](CO)O2)c(=O)[nH]c1=O,,EC50,RF,MT-4,cytopathic effect / MTS,0.0019 µM
CC(=O)SCCOP(=O)(OCCSC(C)=O)OC[C@@H]1CC[C@H](n2cc(C)c(=O)[nH]c2=O)O1,,EC50,LAI,CEM + CEM TK-,RT activity,0.5 µM
c1cc(CN2CCCNCCNCCCNCC2)ccc1CN1CCCNCCNCCCNCC1,,EC50,ADA R5,PBMC,antigen,>25 µg/mL
CCCN(C)c1c(Cc2cc(C)cc(C)c2)c(CC)c(C)[nH]c1=O,RT-Y181C,EC50,Recombinant,MT-4,cytopathic effect / MTT,0.398 µM
O=C1CCCN1CCCN1CC(=O)N2CC(N(CCOc3ccccc3)S(=O)(=O)c3cccc(F)c3)C[C@H]2C1=O,,EC50,PLAI-JRFL PID3-19,TZM-bl,luciferase,>30 µM
Cc1cc(S(N)(=O)=O)ccc1NC(=O)COc1ccc(Cl)cc1C(=O)c1cc(Cl)cc(C#N)c1,RT-K101E,EC50,NNRTI-resistant (RT K101E),MAGI,β-galactosidase,0.00096 µM
O=c1[nH]cnc2c1ncn2[C@H]1CC[C@@H](CO)O1,,EC50,ROD,MT-4,MTT,4.953 µM
Cc1nc(C)c([C@H](OC(C)(C)C)C(=O)O)c(N2CC3CCCC3C2)c1-c1ccc(C(=O)NCc2ccc(F)cc2)cc1,,EC50,NL4-3,MT-2,luciferase,<0.1 µM
Cc1cc(S(N)(=O)=O)ccc1NC(=O)COc1ccc(Cl)cc1C(=O)c1cc(Cl)cc(C#N)c1,Y181C,EC50,,HeLa,,0.0007 µM
O=C(NC1CCN(S(=O)(=O)c2ccccc2)CC1)c1cc(O)c(O)c(O)c1,,EC50,IIIB,MT-4,MTT,>127.8 µM
Cc1cc(C#Cc2ccccc2)cc(C)c1Oc1ccnc(Nc2ccc(C#N)cc2)n1,L100I,EC50,IIIB,MT-4,MTT,1.01 µM
CCOC(=O)C(=O)CC(=O)c1cccc(Oc2ccnc(Nc3ccc(C#N)cc3)n2)c1,Y188L,EC50,IIIB,MT-4,MTT,>13 µM
N#Cc1ccc(Nc2nc(Oc3c(Br)cc(Br)cc3Br)ncc2[N+](=O)[O-])cc1,,EC50,RES056,MT-4,MTT,>20.4 µM
O=c1[nH]cnc2c1ncn2[C@H]1CC[C@@H](CO)O1,,EC50,LAI,CEM + CEM-SS,RT activity,4.3 µM
CC(C)CN(C[C@@H](O)[C@H](Cc1ccccc1)NC(=O)O[C@@H]1[C@@H]2CCCO[C@@H]2O[C@H]1C)S(=O)(=O)c1ccc(N)cc1,,EC50,PR-L63P ERS104pre,PBMC,p24,0.024 µM
CCOC(=O)C(=O)CC(=O)c1ccc(Oc2ccnc(Nc3ccc(C#N)cc3)n2)cc1,Y188L,EC50,IIIB,MT-4,MTT,>22 µM
Cc1cccc2c1nc1n2C(c2c(F)cccc2F)SC1,,EC50,IIIB,MT-4,cytopathic effect / MTT,3 µM
Cc1cc(C#Cc2cccc(N)c2)cc(C)c1Oc1ccnc(NC2CCN(Cc3ccc(C#N)cc3)CC2)n1,E138K,EC50,IIIB,MT-4,MTT,>0.261 µM
COc1ccc2nc3n(c2c1)C(c1c(Cl)cccc1Cl)SC3,,EC50,IIIB,MT-4,cytopathic effect / MTT,>292 µM
O=C(NC1CCN(C(=O)c2ccccc2)CC1)c1cc(O)c(O)c(O)c1,,EC50,IIIB,MT-4,MTT,>38.3 µM
CN(C)CCCn1c2ccc(O)cc2c2c3c(c4c5cc(O)ccc5[nH]c4c21)C(=O)NC3=O,,EC50,,U1/HIV-1(+PMA) + U1,syncytia,0.029 µM
Cc1cn([C@H]2C[C@H](N=[N+]=[N-])[C@@H](CO)O2)c(=O)[nH]c1=O,PR-A71T V82A,EC50,NL4-3,MT-2,p24,0.002 µM
N#Cc1ccc(Nc2nc(Oc3c(Cl)cc(Cl)cc3Cl)ncc2[N+](=O)[O-])cc1,,EC50,IIIB,MT-4,MTT,7.4 µM
C[C@H]1O[C@@H]2OCCC[C@@H]2[C@@H]1OC(=O)N[C@@H](Cc1ccccc1)[C@H](O)CN1C[C@H]2CCCC[C@H]2C[C@H]1C(=O)NC(C)(C)C,PR-L10I K14R R41K M46I I54V L63P A71V V82A L90M I93L,EC50,TM,PBMC,p24,>1 µM
OC[C@H]1O[C@@H](n2cnc3cc(Cl)c(Cl)cc32)[C@H](O)[C@@H]1O,,EC50,NL4-3 Recombinant VSV-pseudotyped,MT-2,luciferase,<50 µM
NC(=O)C(c1ccccc1)(c1ccccc1)[C@H]1CCCN(CCc2ccc3c(c2)CCO3)C1,,EC50,NL4-3,PM1,p24,0.93 µM
CCOC(=O)CC(=O)N1CCC(NC(=O)c2cc(O)c(O)c(O)c2)CC1,,EC50,IIIB,MT-4,MTT,>31.3 µM
CC1(C)O[C@@H]1COc1c2occc2cc2ccc(=O)oc12,,EC50,NL4-3 Recombinant VSV-pseudotyped,MT-2,luciferase,25 µM
Cc1cc(S(N)(=O)=O)ccc1NC(=O)COc1ccc(Cl)cc1C(=O)c1cc(C#N)cc(C(=O)N2CCCC2)c1,WTRVA,EC50,,HeLa,,0.048 µM
Cc1cc(C#Cc2ccc(C(=O)O)cc2)cc(C)c1Oc1ccnc(Nc2ccc(C#N)cc2)n1,Y181C,EC50,IIIB,MT-4,MTT,0.45 µM
CN(C)CCN(C)CCCCCCCCOP(=O)(O)OC[C@H]1OC(O)[C@H](O)[C@@H](O)[C@@H]1O,,EC50,LAI,CEM + CEM-4,cytopathic effect / MTT,1 µM
Cc1cc(S(N)(=O)=O)ccc1NC(=O)COc1ccc(Cl)cc1C(=O)c1cc(C#N)cc(CO)c1,V106A,EC50,,HeLa,,0.067 µM
c1ccc(CNCc2ccc(CN3CCCNCCNCCCNCC3)cc2)nc1,AMD3100-resistant,EC50,NL4-3,MT-4,cytopathic effect / MTS,2.822 µM
NC(=O)C(c1ccccc1)(c1ccccc1)C1CCCN(CCCOCc2ccccc2)C1,,EC50,NL4-3,MT-2,cytopathic effect / XTT,3.9 µM
N#Cc1ccc(Nc2nccc(Oc3ccc(C(=O)CC(=O)C(=O)O)cc3)n2)cc1,K103N + Y181C,EC50,IIIB,MT-4,MTT,>48 µM
Nc1ncnc2c1ncn2[C@H]1CC[C@](OCP(=O)(O)O)(C(F)(F)F)C1,,EC50,LAI,PBMC,MTT,8.4 µM
CC(C)CN(C[C@@H](O)[C@H](Cc1ccccc1)NC(=O)O[C@H]1CO[C@H]2OCC(F)(F)[C@H]21)S(=O)(=O)c1ccc(N)cc1,L10F M46I I54V V82A LPV resistant,EC50,NL4-3,MT-4,,0.03 µM
N#Cc1cc([C@H]2C[C@H](N=[N+]=[N-])[C@@H](CO)O2)cc(=O)[nH]1,,EC50,IIIB,MT-4,MTT,>478 µM
CNC(=O)c1cc(C#N)cc(C(=O)c2cc(Cl)ccc2OCC(=O)Nc2ccc(S(N)(=O)=O)cc2C)c1,Y181C,EC50,,HeLa,,>2 µM
CCCc1c([Se]c2ccccc2)n(COCc2ccccc2)c(=O)[nH]c1=O,,EC50,Cat #3 strain,MT-2,p24,0.025 µM
Fc1ccc2c(c1)nc1n2C(c2c(F)cccc2F)SC1,,EC50,IIIB,MT-4,cytopathic effect / MTT,5.2 µM
COc1ccc(S(=O)(=O)N2CCC(NC(=O)c3cc(O)c(O)c(O)c3)CC2)cc1,,EC50,IIIB,MT-4,MTT,>130.5 µM
Nc1nc(N)c2ncn(CCOCP(=O)(O)O)c2n1,,EC90,LAV,H9,RT activity,0.1 µM
Cc1cn([C@H]2CC[C@@H](CO)O2)c(=O)[nH]c1=O,,EC50,LAI,CEM + CEM TK-,RT activity,>100 µM
Cc1cc(S(N)(=O)=O)ccc1NC(=O)COc1ccc(Cl)cc1C(=O)c1cc(C#N)cc(C(=O)O)c1,Y181C,EC50,,HeLa,,>2 µM
O=C(NC1CCNCC1)c1cc(O)c(O)c(O)c1,,EC50,IIIB,MT-4,MTT,>42.1 µM
Nc1ncnc2c1ncn2[C@H]1CC[C@@H](CO)O1,,EC50,LAI,CEM + CEM TK-,RT activity,1.1 µM

Repeating the final 4 entries:

structure,changes,measure,strain or isolate,cells,method,result
Cc1cn([C@H]2CC[C@@H](CO)O2)c(=O)[nH]c1=O,,EC50,LAI,CEM + CEM TK-,RT activity,>100 µM
Cc1cc(S(N)(=O)=O)ccc1NC(=O)COc1ccc(Cl)cc1C(=O)c1cc(C#N)cc(C(=O)O)c1,Y181C,EC50,,HeLa,,>2 µM
O=C(NC1CCNCC1)c1cc(O)c(O)c(O)c1,,EC50,IIIB,MT-4,MTT,>42.1 µM
Nc1ncnc2c1ncn2[C@H]1CC[C@@H](CO)O1,,EC50,LAI,CEM + CEM TK-,RT activity,1.1 µM